PubChem BioAssay AID1800 (The Scripps Research Institute Molecular Screening Center, 2009)
“And” between values parts separate entries of the source, which are not always exact repeats. Equal entries are not always repeated. The list shows a part of the results, in another mix than the full data. The source made the active and inactive calls.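 The calls were made as follows: active = inhibition above the mean of all tested compounds plus 3 SD, set per campaign (cut at about 35% in these data); inactive = the rest.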

Test system: Hepatitis C virus NS3 helicase
Assay: inhibitors of HCV NS3 helicase, primary screen, biochemical, Cy5 molecular beacon fluorescence (AID 1800);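 also: 0% = DMSO wells and 100% = thioflavine S control wells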
Details: NS3 helicase DNA unwinding, at 10.9 µM, hits give high values
Outline: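 System: Hepatitis C virus NS3 helicase domain fragment enzyme | Reagent: Annealed dual-labelled DNA beacon duplex, ATP-started | Compound dosing: 10.9 µM single point, 0.8% DMSO | Incubation: 1 h reaction at 25 °C, ATP-initiated | Technique: Cy5 fluorescence | Evaluation: Percent inhibition from t60/t0 fluorescence ratio | Benchmarks: Low DMSO, high thioflavine S at 110 µM | Replication: Singlicate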

| Compound | inhibition |
| --- | --- |
| CC(=O)Nc1ccc(Oc2c([N+](=O)[O-])cc([N+](=O)[O-])cc2[N+](=O)[O-])cc1 | inactive: -0.44% |
| CC(=O)Nc1ccc([As](=O)(O)O)c(O)c1 | inactive: -4.3% |
| CC(=O)c1ccc(N2CC2c2ccncc2)cc1 (centres undefined) | inactive: -8.72% |
| CC(C)(C)C(=O)NC(Sc1ccccc1)C(Cl)(Cl)Cl (centres undefined) | inactive: -3.5% |
| CCOc1ccc(C2=NCC(CBr)S2)cc1 (centres undefined) | inactive: -40.2% |
| O=P1(Nc2nc3ccc(Cl)cc3s2)COc2ccccc2O1 (centres undefined) | inactive: 1.32% |
| CN(C)C(=O)Oc1noc2ccccc12 | inactive: -1.45% |
| O=c1c2cc([N+](=O)[O-])ccc2[nH]c2c([N+](=O)[O-])cc([N+](=O)[O-])cc12 | inactive: 8.28% |
| Cc1ccccc1OP(=O)(Nc1ccccn1)Oc1ccccc1C | inactive: -1.54% |
| Cc1ccc(OP(=O)(Nc2ccccn2)Oc2ccc(C)cc2)cc1 | inactive: 4.67% |
| CC(=O)NC(SC(=S)N(CC(C)C)CC(C)C)C(Cl)(Cl)Cl (centres undefined) | inactive: 9.4% |
| COC(=O)c1cc2c(s1)N=C(c1ccccc1)N(C)P2(=O)N1CCOCC1 (centres undefined) | inactive: 5.24% |
| CCC(=O)N1C2C3N(C(=O)CC)C1C1N(C(=O)CC)C(C(N1C(=O)CC)N3C(=O)CC)N2C(=O)CC | inactive: 5.13% |
| O=C(OC1CN2CCC1CC2)c1ccccc1 (centres undefined) | inactive: 8.4% |
| O=C(NC1CCS(=O)(=O)C1)NP(=S)(Oc1ccccc1)Oc1ccccc1 (centres undefined) | inactive: -5.79% |
| CCNC(=S)/N=C(\N)N[N+](=O)[O-] | inactive: -2.78% |
| CCOC(=O)NC(Sc1ccccc1)C(Cl)(Cl)Cl (centres undefined) | inactive: -2.23% |
| Cc1ccc(NP(=O)(Oc2cccc(C)c2)Oc2cccc(C)c2)nc1 | inactive: 9.48% |
| c1ccc(-c2nn[nH]n2)c(-c2nn[nH]n2)c1 | inactive: -2.48% |
| Nc1ccc([As](=O)(O)c2ccc([N+](=O)[O-])cc2)cc1 | inactive: -5.14% |
| C(Cc1nn[nH]n1)Cc1nn[nH]n1 | inactive: -9.12% |
| O=C(OC1CN2CCC1CC2)c1cccc(Cl)c1 (centres undefined) | inactive: -4.41% |

| Compound | inhibition |
| --- | --- |
| O=[N+]([O-])c1ncn(CCn2cnc([N+](=O)[O-])n2)n1 | inactive: 18% |
| CC(=O)NC(SC(=S)N(C)C)C(Cl)(Cl)Cl (centres undefined) | inactive: -9.21% |
| O=[N+]([O-])c1ccc(O)c(/C=N/Nc2ccc([N+](=O)[O-])cc2[N+](=O)[O-])c1 | inactive: -11.9% |
| O=[As](O)(c1ccccc1)c1ccc(O)cc1 | inactive: 3.46% |
| O=P(Nc1nc2ccccc2s1)(c1ccccc1)c1ccccc1 | inactive: 7.46% |
| CN(C)C1(CNC(=O)c2ccc(Cl)c(S(N)(=O)=O)c2)CCCCC1 | inactive: 7.53% |
| O=P(Nc1ccccn1)(c1ccc(Br)cc1)c1ccc(Br)cc1 | inactive: 1.08% |
| c1nnnn1CCn1cnnn1 | inactive: -0.66% |
| O=P(Nc1nccs1)(c1ccccc1)c1ccccc1 | inactive: 3.58% |
| CC(C)C(=O)NC(Sc1ccccc1)C(Cl)(Cl)Cl (centres undefined) | inactive: -0.66% |
| CN(C)C(=O)OCCc1n(C)cc[n+]1C | inactive: 0.54% |
| CC(C)=N/N=C(\N)N[N+](=O)[O-] | inactive: -13% |
| CC1CCN(C(=O)Oc2c(Cl)cc(Cl)c3cccnc23)CC1 | inactive: 23.4% |
| C[N+]1=C2C=CC=CC=C2SC12C([N+](=O)[O-])=CC([N+](=O)[O-])=C[C-]2[N+](=O)[O-] (centres undefined) | active: 56.7% |
| Nc1ccc([As](=O)(O)c2ccc(N)cc2)cc1 | inactive: 4.05% |
| CCN(/C(=N/P(=O)(N1CCOCC1)N1CCOCC1)N1CCOCC1)c1ccc(OC)cc1 | inactive: 5.82% |
| CC(=O)N1C2C3N(C(C)=O)C1C1N(C(C)=O)C(C(N1C(C)=O)N3C(C)=O)N2C(C)=O | inactive: 3.04% |
| O=[N+]([O-])c1cccc2n[nH]nc12 | inactive: 4.56% |
| O=[N+]([O-])c1cc([N+](=O)[O-])c(CCNc2ccccc2)c([N+](=O)[O-])c1 | inactive: 19.1% |
| CCc1nc2c(n1)c1c(non1O)c1c2no[n+]1[O-] | inactive: -2.14% |
| Cc1ccc(NP(=O)(Oc2ccccc2)Oc2ccccc2)nc1 | inactive: -2.83% |
| COc1ccc(C2=NCC(CBr)S2)cc1 (centres undefined) | inactive: -45.8% |

| Compound | inhibition |
| --- | --- |
| O=[N+]([O-])c1cccc(NC2=NCC(CBr)S2)c1 (centres undefined) | inactive: 14.2% |
| O=C(O)CNc1ccc([As](=O)(O)O)cc1 | inactive: 1.19% |
| CC(C)(C)C(=O)NC(Sc1ccncn1)C(Cl)(Cl)Cl (centres undefined) | inactive: -0.9% |
| O=[N+]([O-])c1ncn(CCn2ncnc2[N+](=O)[O-])n1 | inactive: -6.67% |
| O=C(Nc1cc([As](=O)(O)O)ccc1O)c1ccccc1 | inactive: -0.69% |
| CCN(N=Nc1nonc1N)c1nonc1N | inactive: -4.8% |
| Nc1cccc2ccc([As](=O)(O)O)cc12 | inactive: 0.91% |
| O=[N+]([O-])c1cc([N+](=O)[O-])c(CCN2CCOCC2)c([N+](=O)[O-])c1 | active: 36.9% |
| Cc1ccc(NP(=O)(Oc2ccccc2F)Oc2ccccc2F)nc1 | inactive: 5.48% |
| CCOP(=O)(Nc1ccccc1)OCC | inactive: 1.45% and inactive: -2.09% |
| Cc1cc(SC(NC(=O)c2ccc(F)cc2)C(Cl)(Cl)Cl)ncn1 (centres undefined) | inactive: 2.13% |
| O=C(O)c1ccccc1[As](=O)(O)O | inactive: 18.8% |
| CC(=O)Nc1ccc([As](=O)(O)O)cc1 | inactive: 12.2% |
| O=P(Nc1nc2ccc(Cl)cc2s1)(c1ccccc1)c1ccccc1 | inactive: -6.81% |
| CC(C)CC(=O)NC(Sc1ccc(Cl)cc1)C(Cl)(Cl)Cl (centres undefined) | inactive: -11.9% |
| Nc1cc(N)c2nonc2c1[N+](=O)[O-] | inactive: -14.7% |
| Cc1c2non([O-])c-2c(C)[n+](=O)[n+]1[O-] | inactive: -0.21% |
| O=C(NC(Sc1ccncn1)C(Cl)(Cl)Cl)c1ccccc1 (centres undefined) | inactive: -0.26% |
| Oc1ccccc1CNc1ccccn1 | inactive: -3.27% |
| Cc1ccc(OP(=O)(Nc2nccs2)Oc2ccc(C)cc2)cc1 | inactive: 7.05% |
